Measured values from several laboratories, pooled; numbers as filed in NIAID ChemDB.

Shared fields: tests in culture; agent: Aspergillus fumigatus; read-out: EC50

ECn is the concentration giving n% inhibition of infection, replication or growth. Blank or dashed fields: not listed here. Rows are shuffled and stem from different studies.

compound	strain	read by	value
C[C@@H]1CCC2(OC1)OC1CC3C4C[C@H](O)[C@H]5C[C@@H](O)CC[C@]5(C)C4CC(=O)[C@]3(C)C1[C@@H]2C	ATCC 90906		10 µg/mL
O/N=C/c1cc[n+](Cc2cc(C[n+]3ccc(/C=N/O)cc3)on2)cc1.[Br-].[Br-]		broth dilution	>20 µg/mL
CN(c1cccc(Cl)c1)c1cc2ccccc2[n+](C)c1.[I-]	ATCC 90906	resazurin	>20 µg/mL
COc1cc2ccnc3c2c(c1OC(=O)c1ccc(F)cc1)N(C)C=C3			>15 µg/mL
Cc1onc(-c2cccc(Cl)c2)c1C=O	Clinical isolates		7.29 µg/mL
O/N=C/c1cccc[n+]1Cc1csc2ccccc12.[Cl-]		broth dilution	>20 µg/mL
C[n+]1c2ccccc2cc2[nH]c3c(Br)cccc3c21.[I-]	ATCC 90906	resazurin	>20 µg/mL
CCCCCOc1ccc(-c2cc(-c3ccc(C(=O)N[C@H]4C[C@@H](O)[C@@H](O)NC(=O)[C@@H]5[C@@H](O)[C@@H](C)CN5C(=O)[C@H]([C@H](O)CC(N)=O)NC(=O)[C@H]([C@H](O)[C@@H](O)c5ccc(O)c(OS(=O)(=O)O)c5)NC(=O)[C@@H]5C[C@@H](O)CN5C(=O)[C@H]([C@@H](C)O)NC4=O)cc3)no2)cc1	AF-294	broth dilution	1 µg/mL
C[n+]1cccc(N(CCCCCC2CCCCC2)c2cccc(C#N)c2)c1.[I-]	ATCC 90906	resazurin	>20 µg/mL
O/N=C/c1cccc[n+]1Cc1ccc(C[n+]2ccccc2/C=N/O)s1.[Cl-].[Cl-]		broth dilution	>20 µg/mL
COc1cc2ccnc3c2c(c1OC(=O)c1ccc(CCl)cc1)N(C)C=C3			>15 µg/mL
O=Cc1cc(-c2ccccc2Br)no1	Clinical isolates		36.61 µg/mL
COc1cc2ccnc3c2c(c1OC(=O)c1ccc(C#N)cc1)N(C)C=C3			>15 µg/mL
Cc1onc(-c2ccccc2)c1C=O	Clinical isolates		45.79 µg/mL
COc1cc2ccnc3c2c(c1OC(=O)c1cccc(C)c1)N(C)C=C3			>15 µg/mL
NC(=O)c1cc[n+](Cc2ccc(C[n+]3ccc(C(N)=O)cc3)o2)cc1.[Br-].[Br-]		broth dilution	>20 µg/mL
O=Cc1cc(-c2cccc(Br)c2)no1	Clinical isolates		>50 µg/mL
COc1cc2ccnc3c2c(c1O)N(C)C=C3			>15 µg/mL
COc1ccc(N(CCCCCC2CCCCC2)c2ccc[n+](C)c2)cc1.[I-]	ATCC 90906	resazurin	>20 µg/mL
O=Cc1cc(-c2ccc(Cl)cc2Cl)no1	Clinical isolates		27.5 µg/mL

The last 2 rows once more:

| compound | strain | read by | value |
|---|---|---|---|
| COc1ccc(N(CCCCCC2CCCCC2)c2ccc[n+](C)c2)cc1.[I-] | ATCC 90906 | resazurin | >20 µg/mL |
| O=Cc1cc(-c2ccc(Cl)cc2Cl)no1 | Clinical isolates |  | 27.5 µg/mL |